In patent publication US20030099944A1, “Combination therapy involving drugs which target cellular proteins and drugs which target pathogen-encoded proteins” (priority 1998, published 2003):

Test system: acycloguanosine-resistant and TK− strains of HSV-1

SMILES: CC[C@H](CO)Nc1nc(NCc2ccccc2)c2ncn(C(C)C)c2n1 [Rosco, Roscovitine]
- replication of acycloguanosine-resistant and TK− strains of HSV-1: efficiently
